PubChem BioAssay AID504761 | Drosophila RNAi Screening Center | 2011
In all, the deposit lists about 22,000 reagents; this is a random part of those with a known target gene and a result. Over the whole deposit, 116 (0.52%) were called active. 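Calls depend on retest data that are not deposited; infection was ranked per plate without normalising between plates; the unit of the infection score is not given.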 Raw values vary from plate to plate and are shown uncorrected. Not stated in the record: the amount of reagent, the time to read-out.

Test: 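Fly genes whose silencing reduces dengue virus type 2 infection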 (primary screen)
Cells: D.Mel-2 cells from Drosophila
Reagent: long dsRNA against Drosophila genes
Conditions: infection with dengue virus type 2; dose and infection time not stated
Detection: 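Per well on two replicate plates, imaging gave the percent of cells positive for viral envelope protein, ranked by infection, and a nuclear count of cells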
Reading the numbers: infection score: higher = more virus-infected cells; cell count: higher = more cells in the well
Hit rule: 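Low infection ranks in the two replicates (chance level up to 0.065) followed by a retest with a 1.5-fold or larger significant decrease, p below 0.05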
Meaning of the calls: active = confirmed: knock-down lowers infection; inactive = not picked or not confirmed

| target | amplicon | infection score, replicate 1 | infection score, replicate 2 | cell count, replicate 1 | cell count, replicate 2 | call |
| --- | --- | --- | --- | --- | --- | --- |
| Jon25Bii (Jonah 25Bii) | DRSC03114 | 2.61 | 28.3 | 5549 | 5585 | inactive |
| Jon25Bii (Jonah 25Bii) | DRSC29193 | 12.6 | 22 | 2845 | 5761 | inactive |
| CG18735 | DRSC04312 | 0.55 | 3.67 | 6787 | 7333 | inactive |
| CG18735 | DRSC24372 | 10.1 | 13.5 | 6934 | 6608 | inactive |
| Alg10 (ALG10 alpha-1,2-glucosyltransferase) | DRSC10892 | 2.8 | 1.42 | 5708 | 5930 | inactive |
| Nna1 (Nna1 carboxypeptidase) | DRSC19404 | 12.8 | 2.07 | 6285 | 6766 | inactive |
| Nna1 (Nna1 carboxypeptidase) | DRSC26989 | 13.3 | 5.58 | 6304 | 6862 | inactive |

Next part; the last 3 above are carried over.
| target | amplicon | infection score, replicate 1 | infection score, replicate 2 | cell count, replicate 1 | cell count, replicate 2 | call |
| --- | --- | --- | --- | --- | --- | --- |
| Alg10 (ALG10 alpha-1,2-glucosyltransferase) | DRSC10892 | 2.8 | 1.42 | 5708 | 5930 | inactive |
| Nna1 (Nna1 carboxypeptidase) | DRSC19404 | 12.8 | 2.07 | 6285 | 6766 | inactive |
| Nna1 (Nna1 carboxypeptidase) | DRSC26989 | 13.3 | 5.58 | 6304 | 6862 | inactive |
| or (orange) | DRSC04329 | 0.49 | 19.9 | 406 | 4647 | inactive |
| or (orange) | DRSC29241 | 9.22 | 12.1 | 4383 | 5295 | inactive |
| CG7829 | DRSC16322 | 4.8 | 1.55 | 3438 | 6842 | inactive |
| CG7829 | DRSC28615 | 5.86 | 7.51 | 5326 | 5285 | inactive |
| rb (ruby) | DRSC18826 | 1.77 | 5.91 | 904 | 5991 | inactive |
| rb (ruby) | DRSC27940 | 14.1 | 11.2 | 4983 | 5686 | inactive |
| hbn (homeobrain) | DRSC04238 | 4.84 | 4.55 | 6486 | 6596 | inactive |
| hbn (homeobrain) | DRSC04239 | 25.5 | 13.1 | 5864 | 4765 | inactive |
| hbn (homeobrain) | DRSC22436 | 1.97 | 1.89 | 7109 | 7237 | inactive |
| CG31344 | DRSC16069 | 2.61 | 25.6 | 6468 | 6095 | inactive |
| CG31344 | DRSC29593 | – | – | 315 | 382 | inactive |
| CG8343 | DRSC04905 | 13.4 | 26.6 | 6670 | 6126 | inactive |
| CG8343 | DRSC27692 | 10.4 | 12.8 | 6109 | 6737 | inactive |
| KLHL18 (Kelch like family member 18) | DRSC15496 | 8.54 | 5.15 | 6320 | 6627 | inactive |
| KLHL18 (Kelch like family member 18) | DRSC26629 | 1.69 | 10.1 | 6608 | 5543 | inactive |
| CG13721 | DRSC08330 | 3.17 | 1.97 | 5898 | 6035 | inactive |
